Measured values taken from ChEMBL document CHEMBL2163206, “New nitrogen containing substituents at the indole-2-carboxamide yield high potent and broad spectrum indolylarylsulfone HIV-1 non-nucleoside reverse transcriptase inhibitors” (J Med Chem, 2012).

Assays:
[1] = biological target: Human immunodeficiency virus type 1 reverse transcriptase (Human immunodeficiency virus 1, UniProt Q72547, L100I); experiment: Inhibition of HIV1 reverse transcriptase L100I mutant RNA-dependent DNA polymerase activity using poly(rA)/oligo(dT)10:1 and [3H]-dTTP substrate
[2] = biological target: Human immunodeficiency virus type 1 reverse transcriptase (Human immunodeficiency virus 1, UniProt Q72547, K103N); experiment: Inhibition of HIV1 reverse transcriptase K103N mutant RNA-dependent DNA polymerase activity using poly(rA)/oligo(dT)10:1 and [3H]-dTTP substrate

Cc1cc(C#N)cc(C)c1Oc1nc(Nc2ccc(C#N)cc2)nc(N)c1Br [ETRAVIRINE]
pIC50 [1]: 8.00
pIC50 [2]: 7.70

pIC50: −log10 of the molar value.
